According to PubChem BioAssay AID1053175 (ICCB-Longwood Screening Facility, Harvard Medical School, 2014):
The list shows a part of the results, in another mix than the full data. Active and inactive are the calls of the source.

assay: E. coli growth inhibition, primary screen, OD600 (AID 1053175); details: Escherichia coli growth, OD600, 23 h; hits give low values

| Compound | OD600 absorbance |
| --- | --- |
| Cc1cccc(NC2(C#N)CCN(Cc3ccccc3)CC2)c1 | inactive: 0.675 |
| CSc1ccccc1C(=O)NCC1(N2CCCCC2)CCCCC1 | inactive: 0.618 |
| O=C(NCC1(N2CCCCC2)CCCCC1)c1cccs1 | inactive: 0.654 |
| O=C(NCC1(N2CCCCC2)CCCCC1)c1ccc(=O)[nH]c1 | inactive: 0.707 |
| CC(C)(C)OC(=O)N1CCC(N(C(=O)c2ccccc2)c2ccc(F)cc2)CC1 | inactive: 0.644 |
| COc1ccc(C(=O)NCC2(N3CCCCC3)CCCCC2)c(OC)c1OC | inactive: 0.707 |
| COc1ccc(C(=O)NCC2(N3CCCCC3)CCCCC2)cc1 | inactive: 0.662 |
| CCOC(=O)N1CCC(Nc2ccc(OC)cc2)CC1 | inactive: 0.681 |
| COc1ccc(Cl)cc1C(=O)NCC1(N2CCOCC2)CCCCC1 | inactive: 0.671 |
| O=C(NCC1(N2CCCCC2)CCCCC1)c1ccc(Cl)s1 | inactive: 0.668 |
| N#CC1(Nc2ccccc2)CCN(Cc2ccccc2)CC1 | inactive: 0.598 |
| O=C(OC1CN2CCC1CC2)C1c2ccccc2Oc2ccccc21 (centres undefined) | inactive: 0.654 |
| O=C(NCC1(N2CCOCC2)CCCCC1)c1cc2ccccc2o1 | inactive: 0.702 |
| Cc1cc(C)cc(N(C(=O)c2ccccc2)C2CCN(C(=O)OC(C)(C)C)CC2)c1 | inactive: 0.69 |
| O=C(NCC1(N2CCCCC2)CCCCC1)c1ccc(Cl)nc1 | inactive: 0.65 |
| CCOC(=O)N1CCC(Nc2ccc(F)cc2)CC1 | inactive: 0.691 |
| COc1ccc(NC2CCN(CCc3ccccc3)CC2)c(OC)c1 | inactive: 0.65 |
| CCCCOc1ccc(C(=O)NCC2(N3CCOCC3)CCCCC2)cc1 | inactive: 0.645 |
| O=P1(N(CCCl)CCCl)SCCCS1 | inactive: 0.65 |
| O=C(NCC1(N2CCCCC2)CCCCC1)c1ccc(F)cc1 | inactive: 0.717 |
| CCOc1ccc(C)cc1CN(CCCl)CCCl | inactive: 0.681 |
| CCOC(=O)N1CCC(Nc2cccc(C)c2)CC1 | inactive: 0.718 |
| COc1cc(C(=O)NCC2(N(C)C)CCCCC2)ccc1OC(F)F | inactive: 0.676 |
| O=C(NCC1(N2CCCCC2)CCCCC1)c1cccc([N+](=O)[O-])c1 | inactive: 0.649 |
| CSc1ccc(C(=O)NCC2(N3CCOCC3)CCCCC2)cc1 | inactive: 0.651 |
| N#CC1(Nc2ccccc2)CCN(CCc2ccccc2)CC1 | inactive: 0.696 |
| CCN1CCC(Nc2ccc(Cl)cc2)CC1 | inactive: 0.712 |
| O=C(NCC1(N2CCCCC2)CCCCC1)c1ccc(OC(F)F)cc1 | inactive: 0.7 |
| CC(C)c1ccc(C(=O)NCC2(N3CCOCC3)CCCCC2)cc1 | inactive: 0.674 |
